A mixed list of measured activities; the numbers were collected in NIAID ChemDB.

Common to all: whole-cell or culture tests; agent: HIV-1; read-out: fold resistance

Rows are shuffled and stem from different studies. An empty or dashed field is not shown. Fold resistance has wild type as its base.

SMILES,mutations,read by,strain,cells,result
Cc1cn([C@H]2C[C@H](N=[N+]=[N-])[C@@H](CO)O2)c(=O)[nH]c1=O,RT-M184V,p24,IIIB BCH-189-resistant (RT M184V),MT-4,0.75
Fc1cccc(F)c1C1SCc2nc3ccccc3n21,RT-K103N,cytopathic effect,,CEM,11.2
CC(C)CN(C[C@@H](O)[C@H](Cc1ccccc1)NC(=O)O[C@H]1CCOC1)S(=O)(=O)c1ccc(N)cc1,L10F L33I M36I M46I I54V K55R I62V L63P A71V G73S V82T,p24 / luminescence,NL4-3,MT-4,>27
O=C1N(Cc2ccccc2)c2cscc2S(=O)(=O)N1Cc1ccccc1,RT-D67N K70R T215F K219Q,syncytia,ADP/141,MT-4,0.571
Nc1ccn([C@H]2CC[C@@H](CO)O2)c(=O)n1,RT-A98G Y181C,,BCF08,PBMC,0.4
Cc1cc(S(N)(=O)=O)ccc1NC(=O)COc1ccc(Cl)cc1C(=O)c1cc(Cl)cc(C#N)c1,RT-V106I Y181C,β-galactosidase,NNRTI-resistant (RT V106I Y181C),MAGI,9.4
CC(C)(C)NC(=O)[C@@H]1C[C@@H]2CCCC[C@@H]2CN1C[C@@H](O)[C@H](Cc1ccccc1)NC(=O)[C@H](CC(N)=O)NC(=O)c1ccc2ccccc2n1,PR-V82T,p24,NL4-3,MT-4,1
CC(C)=CCN1Cc2cc(Cl)cc3[nH]c(=S)n(c23)C[C@@H]1C,RT-A98G Y181C,,BCF08,PBMC,>312.5
CCc1cc(NCc2nc3c(Cl)ccc(Cl)c3o2)c(=O)[nH]c1C,RT-K101D L100I,p24,NL4-3,MT-4,>30
Nc1ccn([C@@H]2CO[C@H](CO)S2)c(=O)n1,RT-M184I,RT activity,HXB2D (M1841I),MT-2,5.33
Nc1ccn([C@H]2CC[C@@H](CO)O2)c(=O)n1,RT-T69D,plaque count,JF4A (RT-T69D),HELA-CD4+,5.2
Cc1ccnc2c1NC(=O)c1cccnc1N2C1CC1,RT-D67N K70R T215Y K219Q,cytopathic effect / XTT,4xAZT(RT-D67N K70R T215Y K219Q),CEM + CEM-SS,1
CC(=O)c1ccc(C)cc1NC(C(N)=O)c1c(Cl)cccc1Cl,RT-K103N,MTT,IIIB,MAGI,84.4
O=[N+]([O-])c1ccccc1S(=O)(=O)c1ccccc1,RT-V108I,cytopathic effect / XTT,IIIB(THZ-R(I)),CEM + CEM-SS,>60
CCN[C@H]1CO[C@@H]2OCC[C@H](OC(=O)N[C@@H](Cc3cccc(OC)c3)[C@H](O)CN(CC(C)C)S(=O)(=O)c3ccc4nc(NC(C)C)sc4c3)[C@@H]21,L10I I15V K20R L24I V32I M36I M46I L63P K70Q V82A I84V L89M,p24 / luminescence,NL4-3,MT-4,4.6
CCN1C(=O)N(Cc2ccccc2)S(=O)(=O)c2cscc21,RT-L100I,syncytia,,CEM,3.64
Nc1ccn([C@H]2CC[C@@H](CO)O2)c(=O)n1,ddI-1-resistant,,IIIB,MT-4,2.14
CC(C)=CCN1c2cc(Cl)cc3[nH]c(=S)n(c23)C[C@@H]1C,RT-K70R K103N,,,MT-4,15
Cc1cn([C@H]2C[C@H](N=[N+]=[N-])[C@@H](CO)O2)c(=O)[nH]c1=O,RT-M184V,luciferase,NRTI resistant,HeLa,0.3
Cc1cn([C@@H]2O[C@H](CO[Si](C)(C)C(C)(C)C)C3(OS(=O)(=O)C=C3N)[C@H]2O[Si](C)(C)C(C)(C)C)c(=O)n(C)c1=O,RT-K103N,cytopathic effect / XTT,IIIB,CEM,7.33
CCN1C(=O)N(Cc2cccc(Cl)c2)S(=O)(=O)c2cscc21,RT-K103N,syncytia,,CEM,>50.9
Cc1cn([C@H]2C=C[C@@H](CO)O2)c(=O)[nH]c1=O,RT-V75I F77L F116Y Q151M,p24,Recombinant,PBMC,0.335
CC(C)CN(C[C@@H](O)[C@H](Cc1ccccc1)NC(=O)[C@H](CC(N)=O)NC(=O)c1ccc2ccccc2n1)C(=O)NC(C)(C)C,PR-M46I L63P,p24,NL4-3,MT-4,1
Cc1cn([C@H]2C[C@H](N=[N+]=[N-])[C@@H](CO)O2)c(=O)[nH]c1=O,RT-V75I F77L Q151M,p24,Recombinant,PBMC,0.02
Cc1cn([C@H]2C[C@H](N=[N+]=[N-])[C@@H](CO)O2)c(=O)[nH]c1=O,RT-Q151M,p24,Q151M(RT-Q151M),MT-2,13.1
Cc1cn([C@H]2C[C@H](N=[N+]=[N-])[C@@H](CO)O2)c(=O)[nH]c1=O,RT-K65R M184V,cytopathic effect / XTT,Site-directed mutant,MT-2,0.4
CC(C)CN(C[C@@H](O)[C@H](Cc1ccccc1)NC(=O)O[C@H]1CCOC1)S(=O)(=O)c1ccc(N)cc1,M200I,p24 / ELISA,IIIB,MT-2,0.3
Nc1ncnc2c1ncn2[C@@H]1O[C@H](CO)C[C@@H]1F,RT-K65R,p24,K65R(RT-K65R),MT-2,2.3
Cc1cn([C@H]2C[C@H](N=[N+]=[N-])[C@@H](CO)O2)c(=O)[nH]c1=O,R41K,p24 / ELISA,IIIB,MT-2,1.6
N#Cc1cc2[nH]c3ccccc3c2n(-c2ccc([N+](=O)[O-])cc2)c1=O,RT-M184V,luciferase,Recombinant,HeLa,3.5
O=c1[nH]cnc2c1ncn2[C@H]1CC[C@@H](CO)O1,RT-M184V,p24,XM-M184V,MT-4,1
CC(C)(C)NC(=O)[C@@H]1CN(Cc2cccnc2)CCN1C[C@@H](O)C[C@@H](Cc1ccccc1)C(=O)N[C@H]1c2ccccc2C[C@H]1O,PR-L10I K43T M46L I54L L63P A71T V82A L90M Q92K,p24,Clinical isolate,PBMC,>76.9
C[C@H](Cn1cnc2c(N)ncnc21)OCP(=O)(O)O,RT-K65R Y115F M184V,cytopathic effect / XTT,Site-directed mutant,MT-2,4.5
Cc1cn([C@H]2C[C@H](N=[N+]=[N-])[C@@H](CO)O2)c(=O)[nH]c1=O,,plaque count,A012D,HT4 + HT4-6C,206
Cn1c2ccccc2c2c1cc(C#N)c(=O)n2-c1ccc([N+](=O)[O-])cc1,RT-M184V,luciferase,Recombinant,HeLa,3.9
Cc1cn([C@H]2C[C@H](N=[N+]=[N-])[C@@H](CO)O2)c(=O)[nH]c1=O,RT-M184I,plaque count,HXB2,HELA/CD4 + HELA CD4+,0.05
CCc1c(C(=O)c2cc(C)cc(C)c2)n(CC2CC=CC2)c(=O)[nH]c1=O,RT-T139I,cytopathic effect / XTT,CALO(RT-T139I),CEM + CEM-SS,5
O=c1[nH]cnc2c1ncn2[C@H]1CC[C@@H](CO)O1,RT-A98G K103R,,BCF06,PBMC,1.06
CC(C)OC(=O)OCOP(=O)(CO[C@H](C)Cn1cnc2c(N)ncnc21)OCOC(=O)OC(C)C,RT-D67N K70R T215F K219Q,p24,G910-6 AZT-resistant (RT D67N K70R T215F K219Q),MT-2,0.0474
CCN[C@H]1CO[C@@H]2OCC[C@H](OC(=O)N[C@@H](Cc3ccccc3)[C@H](O)CN(CC(C)C)S(=O)(=O)c3ccc4nc(NC5CC5)sc4c3)[C@@H]21,L10I N37D G48V I54V L63P G73C I84V L90M,p24 / luminescence,NL4-3,MT-4,1.3
Cc1cc(C#N)cc(C)c1Oc1nc(Nc2ccc(C#N)cc2)ncc1SCC(=O)N1CCSCC1,L100I,MTT,,MT-4,9.8
COc1ccc(S(=O)(=O)N(CC(C)C)C[C@@H](O)[C@H](Cc2ccccc2)NC(=O)O[C@H]2CO[C@H]3OCC[C@H]32)cc1,PR-L10I I15V E35D N37E K45R I54V L63P A71V V82T L90M I93L C95F,p24,Clinical isolate,PBMC,1
Nc1ccn([C@H]2C=C[C@@H](CO)O2)c(=O)n1,RT-V75T,plaque count,HXB2 FTC-P5 (RT V75T),CD4+HELA + HeLa,3.33
O=c1[nH]cnc2c1ncn2[C@H]1CC[C@@H](CO)O1,RT-P119S L214F,p24,RT P119S L214F,MT-2,1.1
COC(=O)N[C@H](C(=O)N[C@@H](Cc1ccccc1)[C@@H](O)CN(Cc1ccc(-c2ccccn2)cc1)NC(=O)[C@@H](NC(=O)OC)C(C)(C)C)C(C)(C)C,L10I L33I M36I M46I I54V K55R I62V L63P A71V G73S V82T L90M I93L,p24 / luminescence,NL4-3,MT-4,>213
Cc1cn([C@H]2C[C@H](N=[N+]=[N-])[C@@H](CO)O2)c(=O)[nH]c1=O,Y188L,MTT,,MT-4,0.5
N#CCN1C(=O)N(Cc2ccccc2)S(=O)(=O)c2cscc21,RT-V106A,syncytia,,CEM,130
Nc1nc(=O)n([C@H]2CS[C@@H](CO)O2)cc1F,RT-M184I,cytopathic effect / MTT,RF,MT-4,3.37
CC(C)CN(C[C@@H](O)[C@H](Cc1ccccc1)NC(=O)O[C@H]1CCOC1)S(=O)(=O)c1ccc(N)cc1,PR-D30N A71V,p24,NL4-3-P22 (PR D30N A71V),MT-4,0.5
Fc1cccc(F)c1[C@@H]1SCc2nc3ccccc3n21,RT-L100I,cytopathic effect / XTT,IIIB,CEM,3.75
Cc1ccc(S(=O)(=O)N(CC(C)C)C[C@@H](O)[C@H](Cc2ccccc2)NC(=O)O[C@H]2CO[C@H]3OCC[C@H]32)cc1,R41K,p24 / ELISA,IIIB,MT-2,1.7
Cc1cn([C@H]2C[C@H](N=[N+]=[N-])[C@@H](CO)O2)c(=O)[nH]c1=O,RT-K103N Y181C,cytopathic effect / XTT,IIIB(A17(III)),CEM + CEM-SS,0.4
CC(C)CN(C[C@@H](O)[C@H](Cc1ccccc1)NC(=O)O[C@H]1CCOC1)S(=O)(=O)c1ccc(N)cc1,PR-L10I I15V E35D N37E K45R I54V L63P A71V V82T L90M I93L C95F,p24,Clinical isolate,PBMC,10.4
Cc1cn([C@H]2C[C@H](N=[N+]=[N-])[C@@H](CO)O2)c(=O)[nH]c1=O,RT-L74V,cytopathic effect / XTT,NL4-3,CEM + CEM-SS,10
O=C1O[C@H]2[C@@H]3OC(=O)c4cc(O)c(O)c(O)c4-c4c(cc(O)c(O)c4O)C(=O)OC[C@H]2O[C@@H](OC(=O)c2cc(O)c(O)c(O)c2)[C@@H]3OC(=O)c2cc(O)c(O)c3c2[C@@H]2C1=CC(=O)[C@](O)(O3)C2(O)O,RT-M41I L74V V106A T215V,,NRTI resistant (RT M41I L74V V106A T215V) ARP146,MAGI,0.96
CC(C)(C)NC(=O)[C@@H]1C[C@@H]2CCCC[C@@H]2CN1C[C@@H](O)[C@H](Cc1ccccc1)NC(=O)[C@H](CC(N)=O)NC(=O)c1ccc2ccccc2n1,PR-L10I I15V E35D N37E K45R I54V L63P A71V V82T L90M I93L C95F,p24,Clinical isolate,PBMC,3.6
CC1=C(C(=O)Nc2ccc(Cl)c(C(=O)OC(C)C)c2)SCCO1,RT-P236L,cytopathic effect / XTT,IIIB HEPT-resistant (IV),CEM + CEM-SS,0.3
Fc1cccc(F)c1C1SCc2nc3ccccc3n21,RT-Y181C,cytopathic effect / XTT,IIIB,CEM,9.98
Nc1ccn([C@H]2CC[C@@H](CO)O2)c(=O)n1,RT-V75T T215Y,plaque count,HXB2,CD4+HELA + HeLa,15.7
Cc1cn([C@H]2C[C@H](N=[N+]=[N-])[C@@H](CO)O2)c(=O)[nH]c1=O,RT-T69SSS L210W T215Y,p24,XM-T69SSS,PBMC,470
CCCc1cc(=O)oc2c3c(c4c(c12)OC(C)(C)C=C4)O[C@H](C)[C@@H](C)[C@@H]3O,RT-V90I T139I P225S,cytopathic effect / XTT,IIIB(CALO-R(II)),CEM + CEM-SS,>19
Nc1ncnc2c1ncn2CCOCP(=O)(O)O,RT-F77L F116Y Q151M,p24,RT F77L/F116Y/Q151M,MT-2,1.4

Repeating the first 8 entries:

SMILES | mutations | read by | strain | cells | result
Cc1cn([C@H]2C[C@H](N=[N+]=[N-])[C@@H](CO)O2)c(=O)[nH]c1=O | RT-M184V | p24 | IIIB BCH-189-resistant (RT M184V) | MT-4 | 0.75
Fc1cccc(F)c1C1SCc2nc3ccccc3n21 | RT-K103N | cytopathic effect |  | CEM | 11.2
CC(C)CN(C[C@@H](O)[C@H](Cc1ccccc1)NC(=O)O[C@H]1CCOC1)S(=O)(=O)c1ccc(N)cc1 | L10F L33I M36I M46I I54V K55R I62V L63P A71V G73S V82T | p24 / luminescence | NL4-3 | MT-4 | >27
O=C1N(Cc2ccccc2)c2cscc2S(=O)(=O)N1Cc1ccccc1 | RT-D67N K70R T215F K219Q | syncytia | ADP/141 | MT-4 | 0.571
Nc1ccn([C@H]2CC[C@@H](CO)O2)c(=O)n1 | RT-A98G Y181C |  | BCF08 | PBMC | 0.4
Cc1cc(S(N)(=O)=O)ccc1NC(=O)COc1ccc(Cl)cc1C(=O)c1cc(Cl)cc(C#N)c1 | RT-V106I Y181C | β-galactosidase | NNRTI-resistant (RT V106I Y181C) | MAGI | 9.4
CC(C)(C)NC(=O)[C@@H]1C[C@@H]2CCCC[C@@H]2CN1C[C@@H](O)[C@H](Cc1ccccc1)NC(=O)[C@H](CC(N)=O)NC(=O)c1ccc2ccccc2n1 | PR-V82T | p24 | NL4-3 | MT-4 | 1
CC(C)=CCN1Cc2cc(Cl)cc3[nH]c(=S)n(c23)C[C@@H]1C | RT-A98G Y181C |  | BCF08 | PBMC | >312.5